ChEMBL document CHEMBL1795211, “Evaluation of NTF1836 as an inhibitor of the mycothiol biosynthetic enzyme MshC in growing and non-replicating Mycobacterium tuberculosis” (Bioorg Med Chem, 2011)

What was measured:
[1] = test system: Mycobacterium tuberculosis; test: Antimycobacterial activity against mid-log phase of Mycobacterium tuberculosis VA1215 isolated from patient after two passages after 7 days by 96 well plate assay
[2] = test system: Mycobacterium tuberculosis; test: Antimycobacterial activity against mid-log phase of Mycobacterium tuberculosis UCSD14768J isolated from patient after two passages after 7 days by 96 well plate assay
[3] = test system: Mycobacterium tuberculosis; test: Antimycobacterial activity against mid-log phase of Mycobacterium tuberculosis VA1345 isolated from patient after two passages after 7 days by 96 well plate assay
[4] = test system: Mycobacterium tuberculosis; test: Antimycobacterial activity against mid-log phase of Mycobacterium tuberculosis CDC1551 isolated from patient after 7 days by 96 well plate assay

Compound	MIC95 [1] [µM]	MIC95 [2] [µM]	MIC95 [3] [µM]	MIC95 [4] [µM]
O=C(NCCCN1CCCC1)c1ccc2c(c1)N(Cc1cccc(Cl)c1)C(=O)c1ccccc1S2	110 (≈ 55.7 µg/mL)	110 (≈ 55.7 µg/mL)	110 (≈ 55.7 µg/mL)	110 (≈ 55.7 µg/mL)
CN(CCCNC(=O)c1ccc2c(c1)N(Cc1cccc(Cl)c1)C(=O)c1ccccc1[S+]2[O-])C1CCCCC1 (configuration not stated)	110 (≈ 62.1 µg/mL)	110 (≈ 62.1 µg/mL)	110 (≈ 62.1 µg/mL)	110 (≈ 62.1 µg/mL)
O=C(NCCCN1CCCC1)c1ccc2c(c1)N(Cc1cccc(Cl)c1)C(=O)c1ccccc1[S+]2[O-] (racemic)	220 (≈ 115 µg/mL)	220 (≈ 115 µg/mL)	220 (≈ 115 µg/mL)	220 (≈ 115 µg/mL)
CCC1CCCCN1CCCNC(=O)c1ccc2c(c1)N(Cc1cccc(Cl)c1)C(=O)c1ccccc1[S+]2[O-] (racemic)	110 (≈ 62.1 µg/mL)	–	–	–
O=C(NCCN1CCCCCC1)c1ccc2c(c1)N(Cc1cccc(Cl)c1)C(=O)c1ccccc1[S+]2[O-] (racemic)	110 (≈ 59 µg/mL)	110 (≈ 59 µg/mL)	110 (≈ 59 µg/mL)	110 (≈ 59 µg/mL)

Values after ≈ are worked out from the molar mass of the structure shown.
